Measured values from article PMC12257397, “Scaffold Hopping Strategy toward New 4‑Aminoquinazolines Active Against Extracellular and Intracellular Mycobacterium tuberculosis” (ACS Medicinal Chemistry Letters, 2025).

Assays:
[1] = test system: Vero cells; details: SI = CC50/MIC H37Rv-LP; MTT method
[2] = test system: Vero cells; details: SI = CC50/MIC H37Rv-LP; NR assay
[3] = test system: HepG2 cells; details: SI = CC50/MIC H37Rv-LP; NR assay
[4] = test system: HepG2 cells; details: SI = CC50/MIC H37Rv-LP; for SI HepG2+Gal: galactose medium; for SI HepG2+Glu: glucose medium
[5] = test system: HepG2 cells; details: SI = CC50/MIC H37Rv-LP; MTT method

SMILES	SI Vero [1]	SI Vero [2]	SI HepG2 [3]	SI HepG2+Gal [4]	SI HepG2+Glu [4]	SI HepG2 [5]
Cc1nc(NCCc2ccccc2)c2cc(I)ccc2n1 [9d]	12.3; ^c 12.3 ^d	12.3; ^c 12.3 ^d	8.3	5.4	11.5	9.0
COc1ccc(CCNc2nc(C)nc3ccc(I)cc23)cc1 [10d]	9.8	17.3	9.2	7.0	11.7	12 and 12.1
Cc1nc(NCCc2ccc(Cl)cc2)c2cc(I)ccc2n1 [11d]	2.70	14.0	7.9	3.9	5.0	12
Cc1nc(NCCc2ccc(OC(F)(F)F)cc2)c2cc(Br)ccc2n1 [13c]	<1; ^c <1 ^d	<1; ^c <1 ^d	<1; ^c <1 ^d	0.3	0.4	<1; ^c <1 ^d
Cc1nc(NCCc2ccc(OC(F)(F)F)cc2)c2cc(I)ccc2n1 [13d]	1.2	< 1	2.0; ^c 2.0 ^d	0.6	0.9	2.0; ^c 2.0 ^d
Cc1ccc(CCNc2nc(C)nc3ccc(I)cc23)cc1 [15d]	22.3	26.3	22.1	13.8	23.8	21 and 21.3
CCc1ccc(CCNc2nc(C)nc3ccc(Br)cc23)cc1 [16c]	< 1	2.8	<1; ^c < 1 ^d	0.8	2.0	<1; ^c < 1 ^d
CCc1ccc(CCNc2nc(C)nc3ccc(I)cc23)cc1 [16d]	3.2	4.7	4.4; ^c 4.4 ^d	2.8	3.9	4.4; ^c 4.4 ^d
Cc1nc(NCCc2ccc3ccccc3c2)c2cc(Br)ccc2n1 [17c]	2.0	2.6	<1; ^c <1 ^d	0.7	1.8	<1; ^c <1 ^d
Cc1nc(NCCc2ccc3ccccc3c2)c2cc(I)ccc2n1 [17d]	6.9	7.4	3.4	3.7	5.1	4.9
Cc1nc(NCCCc2ccccc2)c2ccccc2n1 [18a]	4.9	6.0	< 1	1.6	4.8	2.3
COc1ccc2nc(C)nc(NCCCc3ccccc3)c2c1 [18b]	9.7	11.6	11.3	7.3	9.3	> 13.0
Cc1nc(NCCCc2ccccc2)c2cc(Br)ccc2n1 [18c]	41.4	50.0	47.1	34.6	68.2	49.3
Cc1nc(NCCCc2ccccc2)c2cc(I)ccc2n1 [18d]	25.7	27.8	31.6	22.4	35.0	> 34.5
c1ccc(CCCNc2ncnc3ccccc23)cc1 [18e]	<1; ^c <1 ^d	<1; ^c <1 ^d	<1; ^c <1 ^d	0.1	0.5	<1; ^c <1 ^d

“And” between values parts separate entries of the source, which are not always exact repeats. Identical values can stand only once. Like-named read-outs stand apart in the source and are kept apart here. Marks after values point to notes of the source that are not given here.
